{"source": "paper PMC9144902", "about": "“Metal(II) Complexes of the Fluoroquinolone Fleroxacin: Synthesis, Characterization and Biological Profile” (Pharmaceutics, 2022)", "test_system": "calf-thymus DNA (CT DNA)", "test": "DNA-binding study by UV–vis absorption spectroscopy", "conditions": "+ hyperchromism / − hypochromism"}
{"smiles": "CN1CCN(c2c(F)cc3c(=O)c(C(=O)O)cn(CCF)c3c2F)CC1", "note": "[Fleroxacin, 6,8-difluoro-1-(2–fluoroethyl)-7-(4-methylpiperazin-1-yl)-4-oxoquinoline-3-carboxylic acid]", "values": [{"measurement": "Band (ΔA/A0, Δλ): UV–vis band λmax, percentage of hyper-/hypochromism, blue/red shift upon addition of DNA", "result": "291 (−17, −6); 331 (+8, 0) nm (%, nm)"}]}
